# Test results published in patent US20250115620A1, “BRIDGED TRICYCLIC CARBAMOYLPYRIDONE COMPOUNDS AND USES THEREOF” (Gilead Sciences, Inc., priority 2022, published 2025).
# System: pLAI reporter virus
# Assay type: cell-based, HIV
# Settings: EC50 (50% HS)/EC50 (CCM)
row,SMILES,RLUC 50% HS Shift [×]
1,"COC1=NO[C@@]2(CC[C@H](C)N3C[C@H]2n2cc(C(=O)NCc4c(F)cc(F)cc4F)c(=O)c(O)c2C3=O)[C@H]1O [Example 84, (3′S,4R,5R,7′R)-4,12′-dihydroxy-3-methoxy-3′-methyl-1′,11′-dioxo-N-(2,4,6-trifluorobenzyl)-1′,4′,5′,11′-tetrahydro-3′H,4H,7′H-spiro[isoxazole-5,6′-[2,7]methanopyrido[1,2-a][1,4]diazonine]-10′-carboxamide]",74
2,"COC1=NO[C@@]2(CC[C@H](C)N3C[C@H]2n2cc(C(=O)NCc4c(F)cc(F)cc4F)c(=O)c(O)c2C3=O)[C@H]1C [Example 85, (3′S,4R,5S,7′R)-12′-hydroxy-3-methoxy-3′,4-dimethyl-1′,11′-dioxo-N-(2,4,6-trifluorobenzyl)-1′,4′,5′,11′-tetrahydro-3′H,4H,7′H-spiro[isoxazole-5,6′-[2,7]methanopyrido[1,2-a][1,4]diazonine]-10′-carboxamide]",144
3,"COC1=NO[C@@]2(CC[C@H](C)N3C[C@H]2n2cc(C(=O)NCc4c(F)cc(F)cc4F)c(=O)c(O)c2C3=O)[C@@H]1F [Example 86, (3′S,4S,5R,7′R)-4-fluoro-12′-hydroxy-3-methoxy-3′-methyl-1′,11′-dioxo-N-(2,4,6-trifluorobenzyl)-1′,4′,5′,11′-tetrahydro-3′H,4H,7′H-spiro[isoxazole-5,6′-[2,7]methanopyrido[1,2-a][1,4]diazonine]-10′-carboxamide]",228
4,"COC1=NO[C@@]2(CC[C@H](C)N3C[C@H]2n2cc(C(=O)NCc4c(F)cc(F)cc4F)c(=O)c(O)c2C3=O)[C@H]1F [Example 87, (3′S,4R,5R,7′R)-4-fluoro-12′-hydroxy-3-methoxy-3′-methyl-1′,11′-dioxo-N-(2,4,6-trifluorobenzyl)-1′,4′,5′,11′-tetrahydro-3′H,4H,7′H-spiro[isoxazole-5,6′-[2,7]methanopyrido[1,2-a][1,4]diazonine]-10′-carboxamide]",159
5,"C[C@H]1CC[C@@]2(ON=C(CF)[C@@H]2O)[C@H]2CN1C(=O)c1c(O)c(=O)c(C(=O)NCc3c(F)cc(F)cc3F)cn12 [Example 88, (3′S,4S,5R,7′R)-3-(fluoromethyl)-4,12′-dihydroxy-3′-methyl-1′,11′-dioxo-N-(2,4,6-trifluorobenzyl)-1′,4′,5′,11′-tetrahydro-3′H,4H,7′H-spiro[isoxazole-5,6′-[2,7]methanopyrido[1,2-a][1,4]diazonine]-10′-carboxamide]",933
6,"C[C@H]1CC[C@@]2(ON=C(CF)[C@@H]2O)[C@H]2CN1C(=O)c1c(O)c(=O)c(C(=O)NCc3ccc(F)cc3F)cn12 [Example 89, (3′S,4S,5R,7′R)—N-(2,4-difluorobenzyl)-3-(fluoromethyl)-4,12′-dihydroxy-3′-methyl-1′,11′-dioxo-1′,4′,5′,11′-tetrahydro-3′H,4H,7′H-spiro[isoxazole-5,6′-[2,7]methanopyrido[1,2-a][1,4]diazonine]-10′-carboxamide]",160
7,"CC1=NO[C@@]2(CC[C@H](C)N3C[C@H]2n2cc(C(=O)NCc4ccc(F)cc4F)c(=O)c(O)c2C3=O)O1 [Example 91, (3′S,5R,7′R)—N-(2,4-difluorobenzyl)-12′-hydroxy-3,3′-dimethyl-1′,11′-dioxo-1′,4′,5′,11′-tetrahydro-3′H,7′H-spiro[[1,4,2]dioxazole-5,6′-[2,7]methanopyrido[1,2-a][1,4]diazonine]-10′-carboxamide]",789
8,"CC1=NO[C@@]2(CC[C@H](C)N3C[C@H]2n2cc(C(=O)NCc4c(F)cc(F)cc4F)c(=O)c(O)c2C3=O)O1 [Example 92, (3′S,5R,7′R)-12′-hydroxy-3,3′-dimethyl-1′,11′-dioxo-N-(2,4,6-trifluorobenzyl)-1′,4′,5′,11′-tetrahydro-3′H,7′H-spiro[[1,4,2]dioxazole-5,6′-[2,7]methanopyrido[1,2-a][1,4]diazonine]-10′-carboxamide]",2047
9,"CCC1=NO[C@@]2(CC[C@H](C)N3C[C@H]2n2cc(C(=O)NCc4c(F)cc(F)cc4F)c(=O)c(O)c2C3=O)O1 [Example 93, (3′S,5R,7′R)-3-ethyl-12′-hydroxy-3′-methyl-1′,11′-dioxo-N-(2,4,6-trifluorobenzyl)-1′,4′,5′,11′-tetrahydro-3′H,7′H-spiro[[1,4,2]dioxazole-5,6′-[2,7]methanopyrido[1,2-a][1,4]diazonine]-10′-carboxamide]",3109
10,"CCC1=NO[C@@]2(CC[C@H](C)N3C[C@H]2n2cc(C(=O)NCc4ccc(F)cc4F)c(=O)c(O)c2C3=O)O1 [Example 94, (3′S,5R,7′R)—N-(2,4-difluorobenzyl)-3-ethyl-12′-hydroxy-3′-methyl-1′,11′-dioxo-1′,4′,5′,11′-tetrahydro-3′H,7′H-spiro[[1,4,2]dioxazole-5,6′-[2,7]methanopyrido[1,2-a][1,4]diazonine]-10′-carboxamide]",3422
11,"COC1=NO[C@@]2(CCCN3C[C@H]2n2cc(C(=O)NCc4c(F)cc(F)cc4F)c(=O)c(O)c2C3=O)C1 [Example 96, (5S,7′R)-12′-hydroxy-3-methoxy-1′,11′-dioxo-N-(2,4,6-trifluorobenzyl)-1′,4′,5′,11′-tetrahydro-3′H,4H,7′H-spiro[isoxazole-5,6′-[2,7]methanopyrido[1,2-a][1,4]diazonine]-10′-carboxamide]",6
12,"COC1=NO[C@@]2(CC[C@@H](C)N3C[C@H]2n2cc(C(=O)NCc4c(F)cc(F)cc4F)c(=O)c(O)c2C3=O)C1 [Example 97, (3′R,5S,7′R)-12′-hydroxy-3-methoxy-3′-methyl-1′,11′-dioxo-N-(2,4,6-trifluorobenzyl)-1′,4′,5′,11′-tetrahydro-3′H,4H,7′H-spiro[isoxazole-5,6′-[2,7]methanopyrido[1,2-a][1,4]diazonine]-10′-carboxamide]",4
13,"CC1=NO[C@@]2(CC[C@@H](C)N3C[C@H]2n2cc(C(=O)NCc4c(F)cc(F)cc4F)c(=O)c(O)c2C3=O)C1 [Example 98, (3′R,5S,7′R)-12′-hydroxy-3,3′-dimethyl-1′,11′-dioxo-N-(2,4,6-trifluorobenzyl)-1′,4′,5′,11′-tetrahydro-3′H,4H,7′H-spiro[isoxazole-5,6′-[2,7]methanopyrido[1,2-a][1,4]diazonine]-10′-carboxamide]",15
14,"COC1=NO[C@@]2(CC[C@H](CF)N3C[C@H]2n2cc(C(=O)NCc4c(F)cc(F)cc4F)c(=O)c(O)c2C3=O)C1 [Example 99, (3′R,5S,7′R)-3′-(fluoromethyl)-12′-hydroxy-3-methoxy-1′,11′-dioxo-N-(2,4,6-trifluorobenzyl)-1′,4′,5′,11′-tetrahydro-3′H,4H,7′H-spiro[isoxazole-5,6′-[2,7]methanopyrido[1,2-a][1,4]diazonine]-10′-carboxamide]",99
15,"COC1=NO[C@@]2(CC[C@H](CF)N3C[C@H]2n2cc(C(=O)NCc4ccc(F)cc4F)c(=O)c(O)c2C3=O)C1 [Example 100, (3′R,5S,7′R)—N-(2,4-difluorobenzyl)-3′-(fluoromethyl)-12′-hydroxy-3-methoxy-1′,11′-dioxo-1′,4′,5′,11′-tetrahydro-3′H,4H,7′H-spiro[isoxazole-5,6′-[2,7]methanopyrido[1,2-a][1,4]diazonine]-10′-carboxamide]",45
16,"C[C@H]1CC[C@]2(CC(=O)NO2)[C@H]2CN1C(=O)c1c(O)c(=O)c(C(=O)NCc3c(F)cc(F)cc3F)cn12 [Example 101, (3′S,5S,7′R)-12′-hydroxy-3′-methyl-1′,3,11′-trioxo-N-(2,4,6-trifluorobenzyl)-1′,4′,5′,11′-tetrahydro-3′H,7′H-spiro[isoxazolidine-5,6′-[2,7]methanopyrido[1,2-a][1,4]diazonine]-10′-carboxamide]",12
17,"C[C@H]1CC[C@@]2(CC(=O)N(Cc3ccc(F)cc3)O2)[C@H]2CN1C(=O)c1c(O)c(=O)c(C(=O)NCc3c(F)cc(F)cc3F)cn12 [Example 102, (3′S,5R,7′R)-2-(4-fluorobenzyl)-12′-hydroxy-3′-methyl-1′,3,11′-trioxo-N-(2,4,6-trifluorobenzyl)-1′,4′,5′,11′-tetrahydro-3′H,7′H-spiro[isoxazolidine-5,6′-[2,7]methanopyrido[1,2-a][1,4]diazonine]-10′-carboxamide]",15
18,"C[C@H]1CC[C@]2(CC(=O)N(Cc3ccc4c(cnn4C)c3)O2)[C@H]2CN1C(=O)c1c(O)c(=O)c(C(=O)NCc3c(F)cc(F)cc3F)cn12 [Example 103, (3′S,5S,7′R)-12′-hydroxy-3′-methyl-2-((1-methyl-1H-indazol-5-yl)methyl)-1′,3,11′-trioxo-N-(2,4,6-trifluorobenzyl)-1′,4′,5′,11′-tetrahydro-3′H,7′H-spiro[isoxazolidine-5,6′-[2,7]methanopyrido[1,2-a][1,4]diazonine]-10′-carboxamide]",2
19,"C[C@H]1CC[C@]2(CC(=O)N(Cc3cnn(C)n3)O2)[C@H]2CN1C(=O)c1c(O)c(=O)c(C(=O)NCc3c(F)cc(F)cc3F)cn12 [Example 104, (3′S,5S,7′R)-12′-hydroxy-3′-methyl-2-((2-methyl-2H-1,2,3-triazol-4-yl)methyl)-1′,3,11′-trioxo-N-(2,4,6-trifluorobenzyl)-1′,4′,5′,11′-tetrahydro-3′H,7′H-spiro[isoxazolidine-5,6′-[2,7]methanopyrido[1,2-a][1,4]diazonine]-10′-carboxamide]",0
20,"C[C@H]1CC[C@]2(CC(=O)N(CCc3ccccc3)O2)[C@H]2CN1C(=O)c1c(O)c(=O)c(C(=O)NCc3c(F)cc(F)cc3F)cn12 [Example 105, (3′S,5S,7′R)-12′-hydroxy-3′-methyl-1′,3,11′-trioxo-2-phenethyl-N-(2,4,6-trifluorobenzyl)-1′,4′,5′,11′-tetrahydro-3′H,7′H-spiro[isoxazolidine-5,6′-[2,7]methanopyrido[1,2-a][1,4]diazonine]-10′-carboxamide]",52
